# Source: article PMC4357719, “Roles of Rad51 paralogs for promoting homologous recombination in Leishmania infantum”
# Columns and labels:
# Assay in all cases: competition EMSA
# Settings in all cases: 25 mM MOPS pH 7.0, 0.2% Tween-20, 1 mM CaCl2, 2 mM DTT, 25 nM 32P-DNA, 37 C 10 min, then 0.2% glutaraldehyde 15 min, 8% TBE acrylamide gel, recombinant protein
# [1] = target: T1, LiRad51-3 (Leishmania infantum) (UniProt E9AHR7)
# T1 sequence (looked up, limits assumed): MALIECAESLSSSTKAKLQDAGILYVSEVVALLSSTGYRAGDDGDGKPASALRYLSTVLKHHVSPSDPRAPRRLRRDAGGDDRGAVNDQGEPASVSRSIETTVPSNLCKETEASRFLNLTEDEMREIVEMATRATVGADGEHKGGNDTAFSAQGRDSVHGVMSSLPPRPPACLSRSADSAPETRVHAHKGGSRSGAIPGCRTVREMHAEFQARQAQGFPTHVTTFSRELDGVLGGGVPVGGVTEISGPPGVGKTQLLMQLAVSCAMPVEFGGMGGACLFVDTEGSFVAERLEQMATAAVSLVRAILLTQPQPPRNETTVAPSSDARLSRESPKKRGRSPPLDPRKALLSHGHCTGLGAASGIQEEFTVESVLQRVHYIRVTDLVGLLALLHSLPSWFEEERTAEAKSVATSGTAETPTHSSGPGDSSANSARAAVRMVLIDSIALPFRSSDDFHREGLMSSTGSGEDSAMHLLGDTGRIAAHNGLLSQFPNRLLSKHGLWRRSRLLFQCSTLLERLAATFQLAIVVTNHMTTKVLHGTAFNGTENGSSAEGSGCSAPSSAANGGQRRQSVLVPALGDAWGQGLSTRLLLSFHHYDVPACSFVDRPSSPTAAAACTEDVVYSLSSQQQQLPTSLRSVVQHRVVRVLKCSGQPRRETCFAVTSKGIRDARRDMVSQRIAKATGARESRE
# [2] = target: T2, LiRad51-4 (Leishmania infantum) (UniProt A4HUT5)
# T2 sequence (looked up, limits assumed): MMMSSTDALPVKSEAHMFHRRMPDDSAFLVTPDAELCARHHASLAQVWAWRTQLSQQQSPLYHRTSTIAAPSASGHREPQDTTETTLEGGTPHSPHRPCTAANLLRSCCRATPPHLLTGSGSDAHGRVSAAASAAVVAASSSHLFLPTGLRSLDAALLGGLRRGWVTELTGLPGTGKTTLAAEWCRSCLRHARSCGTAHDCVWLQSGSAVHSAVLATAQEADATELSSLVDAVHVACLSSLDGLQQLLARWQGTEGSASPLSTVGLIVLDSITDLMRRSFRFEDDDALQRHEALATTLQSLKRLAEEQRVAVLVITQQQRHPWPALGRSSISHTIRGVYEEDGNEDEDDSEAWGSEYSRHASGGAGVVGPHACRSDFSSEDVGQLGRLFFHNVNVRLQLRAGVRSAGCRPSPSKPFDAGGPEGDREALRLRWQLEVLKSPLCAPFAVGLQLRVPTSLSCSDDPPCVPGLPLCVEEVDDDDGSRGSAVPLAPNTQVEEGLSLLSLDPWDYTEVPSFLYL
# [3] = target: T3, LiRad51-6 (Leishmania infantum) (UniProt A4I499)
# T3 sequence (looked up, limits assumed): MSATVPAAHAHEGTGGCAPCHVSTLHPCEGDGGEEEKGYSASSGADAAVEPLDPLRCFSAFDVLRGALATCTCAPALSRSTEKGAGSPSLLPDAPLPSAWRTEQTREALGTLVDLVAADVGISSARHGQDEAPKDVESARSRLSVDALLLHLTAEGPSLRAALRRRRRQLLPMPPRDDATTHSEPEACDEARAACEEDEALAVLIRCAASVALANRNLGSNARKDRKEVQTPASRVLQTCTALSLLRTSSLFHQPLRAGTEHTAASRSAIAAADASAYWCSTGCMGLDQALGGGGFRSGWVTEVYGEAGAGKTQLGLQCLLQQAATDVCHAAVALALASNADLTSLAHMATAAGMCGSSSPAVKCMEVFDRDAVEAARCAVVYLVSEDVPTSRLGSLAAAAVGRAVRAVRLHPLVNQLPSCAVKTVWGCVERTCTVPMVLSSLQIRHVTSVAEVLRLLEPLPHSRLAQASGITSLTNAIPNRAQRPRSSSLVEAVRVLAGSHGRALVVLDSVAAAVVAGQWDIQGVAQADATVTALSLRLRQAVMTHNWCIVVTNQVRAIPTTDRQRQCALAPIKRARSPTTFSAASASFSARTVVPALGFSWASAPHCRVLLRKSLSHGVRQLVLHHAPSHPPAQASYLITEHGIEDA
# [4] = mixed with ssDNA, 1 mM CaCl2, value given for tailed DNA, label: 32P on strand 1
# [5] = mixed with tailed DNA, label: 32P, single-stranded DNA
Sequence,"binding signal (% bound at 100 nM) [1, 4]","binding signal (% bound at 100 nM) [2, 4]","binding signal (% bound at 100 nM) [3, 4]","binding result [1, 5]","binding result [2, 5]","binding result [3, 5]"
GGGCGAATTGGGCCCGACGTCGCATGCTCCTCTAGACTCGAGGAATTCGGTACCCCGGGTTCGAAATCGATAAGCTTACAGTCTCCATTTAAAGGACAAG / CTTGTCCTTTAAATGGAGACTGTAAGCTTATCGATTTCGAACCCGGGGTA [5'-tailed DNA (JYM696/JYM697)],70,40,70,,,
"GGGCGAATTGGGCCCGACGTCGCATGCTCCTCTAGACTCGAGGAATTCGGTACCCCGGGTTCGAAATCGATAAGCTTACAGTCTCCATTTAAAGGACAAG [ssDNA of tailed-DNA competition (JYM696, inferred)]",,,,binds more weakly,binds more weakly,binds more weakly

# Construct, isoform or probe ends are uncertain for at least one entry. A weaker result is weaker than the reference pair of the same experiment. At least one verdict was read from the data and is not stated in words by the source. Protein sequences can lack the tags named with them.
